Pooled drug test results. Numbers come from NIAID ChemDB, via PubChem.

Common to all: whole-cell or culture tests; organism: HIV-1

Rows are shuffled and stem from different studies. Blank or dashed fields: not listed here. Two numbers with a dash give a range or band. ECn is the concentration giving n% inhibition of infection, replication or growth.

SMILES	strain or isolate	mutations	endpoint	cells	read by	value
CC(=O)CCC(=O)NCCCOCCOCCCNC(=O)CNC(=O)[C@H](CS)NC(=O)[C@@H](NC(=O)[C@@H](NC(=O)[C@H](CO)NC(=O)[C@@H](N)CS)C(C)C)[C@@H](C)O	IIIB		EC50	PBMC(PHA STIM.) + PBMC	p24	<0.66 µM
CC(C)[C@H](NC(=O)[C@H](Cc1cccc2ccccc12)CS(=O)(=O)C(C)(C)C)C(=O)N[C@@H](Cc1ccccc1)[C@H](O)[C@H](O)[C@H](Cc1ccccc1)NC(=O)[C@@H](NC(=O)[C@H](Cc1cccc2ccccc12)CS(=O)(=O)C(C)(C)C)C(C)C	D34		EC50	PBLC	p24	0.217 µM
CC[C@@H](O)C1=C[C@@H](n2cnc3c(N)ncnc32)[C@H](O)[C@@H]1O			EC50	HeLa CD4+/TAT+ + HeLa	β-galactosidase	4.6 µM
CC(C)CN(CC(O)CCN1CCN(Cc2cccnc2)C[C@H]1C(=O)NC(C)(C)C)S(=O)(=O)c1ccccc1	IIIB		EC90	CEM	p24	1 µM
Cc1nnc(NC(=S)Nc2ccccc2)nc1/C=C/c1ccc(N(C)C)cc1			EC50	CEM	cytopathic effect / XTT	>0.2 µM
CCOC(=O)C1C/C(=C\c2cc(O)c(O)c(O)c2)C(=O)/C(=C/c2cc(O)c(O)c(O)c2)C1			EC50	MT-4	cytopathic effect / MTT	12.5 µM
O=C1c2ccccc2N(Cc2ccc(Cl)c(Cl)c2)S(=O)(=O)N1Cc1ccccc1	IIIB		EC50	MT-4	cytopathic effect	2.4–7.6 µM
C[C@H](Cn1cnc2c(N)ncnc21)OCP(=O)(O)O	NLAD8		EC50	TZM-bl	luciferase	0.007 µM
Cc1nnc(N)nc1/C=C/c1ccc(N(C)C)cc1			EC50	CEM	cytopathic effect / XTT	>0.6 µM
CCCn1c(Cl)c([N+](=O)[O-])c(=O)[nH]c1=O	IIIB		EC50	MT-4		>62.4 µg/mL
Cc1cn([C@@H]2O[C@H](CO)C3C2C3(F)F)c(=O)[nH]c1=O			EC50			11 µM
CC(C)[C@H](NC(=O)[C@H](Cc1ccccc1)C[C@H](O)[C@H](Cc1ccccc1)NC(=O)OC(C)(C)C)C(N)=O	IIIB		EC50	MOLT-4		0.17 µM
Cc1ccnc(SC(F)(F)c2nc3ccccc3o2)n1	IIIB		EC50	CEM + CEM-SS	cytopathic effect / XTT	0.067 µM
COC(=O)[C@H](C)NP(=O)(OC[C@H]1O[C@@H](n2cc(C)c(=O)[nH]c2=O)C[C@@H]1N=[N+]=[N-])Oc1ccccc1	IIIB		EC50	CEM + CEM/0		0.055 µM
O=C(O)CC1C/C(=C\c2cc(O)c(O)c(O)c2)C(=O)/C(=C/c2cc(O)c(O)c(O)c2)C1			EC50	MT-4	cytopathic effect / MTT	2 µM
CC(C)[C@H](NC(=O)[C@H](C/C=C/c1ccccc1)C[C@H](O)[C@H](Cc1ccccc1)NC(=O)OC(C)(C)C)c1ncn[nH]1	IIIB		EC50	MOLT-4		0.31 µM
FC(F)(Sc1ncccn1)c1nc2ccccc2o1	4xAZT(RT-D67N K70R T215Y K219Q)	RT-D67N K70R T215Y K219Q	EC50	CEM + CEM-SS	cytopathic effect / XTT	0.373 µM
Nc1nccc2c1ncn2[C@@H]1CC[C@@H](O)[C@H]1O			EC50	HeLa CD4+/TAT+ + HeLa	β-galactosidase	0.29 µM
O=C(c1ccccc1)N(CCc1ccccc1)C[C@H](O)CN(CC1CCCC1)S(=O)(=O)c1ccccn1	IIIB		EC50	CEM	p24	<1 µM
CCOC(=O)CC1C/C(=C\c2cc(O)c(O)c(O)c2)C(=O)/C(=C/c2cc(O)c(O)c(O)c2)C1			EC50	MT-4	cytopathic effect / MTT	30 µM
C/C(=N\NC(=O)c1ccccc1)c1cn(S(=O)(=O)c2ccc(Cl)cc2)c2cc(C)ccc12	IIIB		EC50	C8166	syncytia / visual reading	2.51 µg/mL
COc1ccc(S(=O)(=O)N(CC(C)C)C[C@@H](O)CCN(CC2CCCC2)S(=O)(=O)C2CCCCC2)cc1	IIIB		EC50	CEM	p24	<1 µM
COc1ccc2c(c1)CCC/C2=N\OC(=O)Nc1ccccc1-c1ccccc1	IIIB		EC50	MT-2	cytopathic effect / XTT	>100 µg/mL
CC(C)[C@H](NC(=O)[C@H](Cc1ccccc1)C[C@H](O)[C@H](Cc1ccccc1)NC(=O)[C@H](C)NC(=O)OCc1ccccc1)C(N)=O	IIIB		EC50	MOLT-4		0.85 µM
CCN1C/C(=C\c2ccc([N+](=O)[O-])c(O)c2)C(=O)/C(=C/c2ccc([N+](=O)[O-])c(O)c2)C1			EC50	MT-4	cytopathic effect / MTT	>4 µM
CC1=NN2C(=N)CC(=O)N=C2N=C1/C=C/c1ccc(N(C)C)cc1			EC50	CEM	cytopathic effect / XTT	>0.634 µM
CC(=O)OCc1cc2ccc3c(c2oc1=O)[C@@H](OC(=O)[C@@]12CC[C@@](C)(C(=O)O1)C2(C)C)[C@@H](OC(=O)[C@@]12CC[C@@](C)(C(=O)O1)C2(C)C)C(C)(C)O3	IIIB		EC50	H9	p24	0.06767 µM
Nc1nccc2c1ncn2[C@@H]1C[C@H](CO)[C@@H](O)[C@H]1O			EC50	HeLa CD4+/TAT+ + HeLa	β-galactosidase	7.4 µM
Cc1ccc(S(=O)(=O)n2cc(/C=N/NC(=O)c3ccccc3)c3cc([N+](=O)[O-])ccc32)cc1	IIIB		EC50	C8166	syncytia / visual reading	20.82 µg/mL
COc1ccc(S(=O)(=O)N(CC(C)C)C[C@@H](O)C[C@H](Cc2ccccc2)CN2CSCC2C(=O)NC(C)(C)C)cc1	IIIB		EC90	CEM	p24	1 µM
C/C(=N\NC(=O)c1ccccc1)c1cn(S(=O)(=O)c2ccc(Cl)cc2)c2ccccc12	IIIB		EC50	C8166	syncytia / visual reading	125 µg/mL
CC(C)C(=O)c1cnc([C@H](Cc2ccccc2)C[C@H](O)[C@H](Cc2ccccc2)NC(=O)[C@@H](NC(=O)OCc2ccccc2)C(C)C)[nH]1	IIIB		EC50	MOLT-4		0.13 µM
C#CCOCN1c2ccccc2C(=O)N(Cc2ccccc2)S1(=O)=O	IIIB		EC50	MT-4	cytopathic effect	>10 µM
O=C(Cn1nc(C(F)F)cc1C1CC1)N[C@@H](Cc1cc(F)cc(F)c1)c1nc2nc(-c3ncccn3)ccc2c(=O)n1-c1ccc(Cl)c2c(NS(=O)(=O)C3CC3)nn(CC(F)F)c12	NL4-3		EC50	MT-2	luciferase	0.0004 µM
Cc1cc(/C=C/C#N)cc(C)c1Nc1ccnc(Nc2ccc(C#N)cc2)n1	IIIB		EC50	MT-4	MTT	0.0013 µM
N[C@@H](Cc1ccccc1)C(=O)C(F)(F)CN(Cc1ccccc1)S(=O)(=O)c1ccccc1	IIIB		EC50	CEM	p24	<1 µM
CCCN(CCC)C(=O)OCC1CN(C(=O)c2cc(OC)c(OC)c(OC)c2)CCN1C(=O)c1cc(OC)c(OC)c(OC)c1	BaL		EC50	MDM	RT activity	<100 µM
Cc1cc(=O)oc2c3c(c(CBr)cc12)OC(C)(C)[C@H](OC(=O)C12CCC(C)(C(=O)O1)C2(C)C)[C@@H]3OC(=O)C12CCC(C)(C(=O)O1)C2(C)C	IIIB		EC50	H9	p24	0.02462 µM
CC(C)(C)S(=O)(=O)C[C@@H](Cc1cccc2ccccc12)C(=O)N[C@@H](CCC(=O)O)C(=O)N[C@@H](Cc1ccccc1)[C@@H](O)[C@H](O)[C@H](Cc1ccccc1)NC(=O)[C@H](CCC(=O)O)NC(=O)[C@H](Cc1cccc2ccccc12)CS(=O)(=O)C(C)(C)C	D34		EC50	PBLC	p24	>1 µM
N#Cc1ccc2c(c1)c(/C=N/NC(=O)c1ccccc1)cn2S(=O)(=O)c1cccc([N+](=O)[O-])c1	IIIB		EC50	C8166	syncytia / visual reading	3.13 µg/mL
O=C1c2ccccc2N(COCc2ccccc2)S(=O)(=O)N1COCc1ccccc1	IIIB		EC50	MT-4	cytopathic effect	>8 µM
CN1C/C(=C\c2ccc([N+](=O)[O-])c(O)c2)C(=O)/C(=C/c2ccc([N+](=O)[O-])c(O)c2)C1			EC50	MT-4	cytopathic effect / MTT	>1.9 µM
CC(C)[C@H](NC(=O)[C@H](Cc1cc[n+]([O-])cc1)CS(=O)(=O)C(C)(C)C)C(=O)N[C@@H](Cc1ccccc1)[C@@H](O)[C@H](O)[C@H](Cc1ccccc1)NC(=O)[C@@H](NC(=O)[C@H](Cc1cc[n+]([O-])cc1)CS(=O)(=O)C(C)(C)C)C(C)C	D34		EC50	PBLC	p24	50 µM
O=C1c2ccccc2N(Cc2ccccc2)S(=O)(=O)N1COCc1ccccc1	IIIB		EC50	MT-4	cytopathic effect	7.9–22.1 µM
Cc1cn([C@H]2C[C@H](N=[N+]=[N-])[C@@H](CO)O2)c(=O)[nH]c1=O	IIIB		EC50	H9	p24	0.0168 µM
O=C(N[C@@H](Cc1ccccc1)C(=O)C(F)(F)N(Cc1ccccc1)S(=O)(=O)c1ccccc1)O[C@H]1CCOC1	IIIB		EC50	CEM	p24	<1 µM
C#C[C@@]1(CO)C=C[C@H](n2cc(C)c(=O)[nH]c2=O)O1	IIIB		EC50	MT-2	cytopathic effect / MTT	0.16 µM
CC(C)(C)S(=O)(=O)C[C@@H](Cc1cccc2ccccc12)C(=O)NCCC(=O)N[C@@H](Cc1ccccc1)[C@@H](O)[C@H](O)[C@H](Cc1ccccc1)NC(=O)CCNC(=O)[C@H](Cc1cccc2ccccc12)CS(=O)(=O)C(C)(C)C	D34		EC50	PBLC	p24	10 µM
O=C(/C=C/c1ccc(Cl)c(Cl)c1)/C=C/c1ccc(Cl)c(Cl)c1			EC50	MT-4	cytopathic effect / MTT	>200 µM
O=c1[nH]c(=S)ccn1[C@@H]1O[C@H](COP(=O)(O)O)[C@@H](O)[C@H]1O	IIIB		EC50	MAGI	β-galactosidase / visual reading	12.2 µM
CC(=O)N1C(=O)CC(=O)N(c2nnc(C)c(/C=C/c3ccc(N(C)C)cc3)n2)C1=S			EC50	CEM	cytopathic effect / XTT	>0.1 µM
O=c1c([N+](=O)[O-])c(Sc2ccccc2)nc2[nH]c(-c3ccccc3)cn12	IIIB		EC50	MT-4		>2.56 µg/mL
NC(=O)CCNC(=O)c1ccccc1SCc1ccccc1	IIIB		EC50	CEM	cytopathic effect / XTT	34.9 µM
C/C(=N\NC(=O)c1ccccc1)c1cn(S(=O)(=O)c2ccc(C)cc2)c2ccc(C#N)cc12	IIIB		EC50	C8166	syncytia / visual reading	59.99 µg/mL
CCCCCCCCCCS(=O)(=O)CCC(=O)N[C@H](C(=O)N[C@@H](Cc1ccccc1)[C@@H](O)[C@H](O)[C@H](Cc1ccccc1)NC(=O)[C@@H](NC(=O)CCS(=O)(=O)CCCCCCCCCC)C(C)C)C(C)C	D34		EC50	PBLC	p24	25 µM
CCCn1c(Sc2ccncc2)c([N+](=O)[O-])c(=O)[nH]c1=O	IIIB		EC50	MT-4		>76.63 µg/mL
CC(C)[C@H](NC(=O)[C@H](CO)NC(=O)[C@@H](N)CS)C(=O)N[C@H](C(=O)N[C@@H](CS)C(=O)NCC(=O)O)[C@@H](C)O	BaL		EC50	PBMC(PHA STIM.) + PBMC	p24	>1.32 µM

Repeating the final 3 entries:

SMILES,strain or isolate,mutations,endpoint,cells,read by,value
CCCCCCCCCCS(=O)(=O)CCC(=O)N[C@H](C(=O)N[C@@H](Cc1ccccc1)[C@@H](O)[C@H](O)[C@H](Cc1ccccc1)NC(=O)[C@@H](NC(=O)CCS(=O)(=O)CCCCCCCCCC)C(C)C)C(C)C,D34,,EC50,PBLC,p24,25 µM
CCCn1c(Sc2ccncc2)c([N+](=O)[O-])c(=O)[nH]c1=O,IIIB,,EC50,MT-4,,>76.63 µg/mL
CC(C)[C@H](NC(=O)[C@H](CO)NC(=O)[C@@H](N)CS)C(=O)N[C@H](C(=O)N[C@@H](CS)C(=O)NCC(=O)O)[C@@H](C)O,BaL,,EC50,PBMC(PHA STIM.) + PBMC,p24,>1.32 µM